Compound potency records, mixed from different reports. Data source: NIAID ChemDB in PubChem.

All rows: host cell toxicity; cell line: HeLa; measure: CC50

CCn: concentration that lowers growth or viability of the cells by n%. Rows are shuffled and stem from different studies. Two numbers with a dash give a range or band.

smiles	value
COc1ccc(CNC(=O)c2c(O)cc(OCC=C(C)C)cc2OC)cc1	≥25 µg/mL
OC[C@H]1O[C@@H](n2cnc3cc(Cl)c(Cl)cc32)[C@H](O)[C@H]1O	40–200 µg/mL
O=C1C=COC=C2C[C@@]34SS[C@]5(CC6=COC=CC(O)C6N5C3=O)C(=O)N4C12	0.8 µg/mL
Nc1ccn([C@H]2C[C@H](O)[C@](CO)(CF)O2)c(=O)n1	>200 µM
O=P(Oc1ccccc1)(Oc1ccccc1)Oc1ccccc1	51.9 µM
CCOC(=O)C(CCSC[C@H]1O[C@@H](n2ccc3c(N)ncnc32)[C@H](O)[C@@H]1O)NC(=O)C(F)(F)F	100 µg/mL
Cc1cccc(N2CCN(c3ccc(Br)nn3)CC2)c1	12.5–25 µg/mL
CC(=O)O[C@@H]1CC2CC(=O)[C@]3(C)CC[C@@]2(C3)[C@@]2(C)CCC[C@@](C)(C(=O)O)[C@H]12	253 µM
CCOc1cc(O)c(C(=O)NCc2ccc(OC)cc2)c(OC)c1	≥25 µg/mL
C#C[C@]1(CO)O[C@@H](n2cc(I)c(=O)[nH]c2=O)C[C@@H]1O	>200 µM
O=[N+]([O-])c1cc(Cl)c(Cl)cc1[N+](=O)[O-]	10 µg/mL
Cc1cccc(NCC(=O)NNCc2ccccc2)c1	<185.6 µM
CC(=O)OC1C=COC=C2CC34SSC5(CC6=COC=CC(OC(C)=O)C6N5C3=O)C(=O)N4C21	75 µg/mL
COC(=O)C(N)CCSC[C@H]1O[C@@H](n2ccc3c(N)ncnc32)[C@H](O)[C@@H]1O	400 µg/mL
O[C@@H]1CC(n2cnc3cc(Cl)c(Cl)cc32)OC[C@@H]1O	400 µg/mL
Clc1cccc(NCn2nnc3ccccc32)c1	<185.7 µM
CSS[C@@]12CC3=COC=CC(OC(C)=O)C3N1C(=O)[C@]1(SSC)CC3=COC=CC(OC(C)=O)C3N1C2=O	20 µg/mL
CC(=O)O[C@H]1CC2C[C@@H](OC(=O)c3ccccc3)[C@H]3[C@](C)(C(=O)O)CCC[C@]3(C)[C@]23CC[C@]1(C)C3	45 µM
OC[C@H]1O[C@@H](n2cnc3cc(Cl)c(Cl)cc32)[C@H](O)[C@@H]1O	≥40 µg/mL
CC(=O)OC1C=COC=C2C[C@@]34S[C@]5(CC6=COC=CC(OC(C)=O)C6N5C3=O)C(=O)N4C21	14.4 µg/mL
CC(=O)O[C@@H]1CC2C[C@@H](OC(=O)c3ccccc3)[C@H]3[C@](C)(C(=O)O)CCC[C@]3(C)[C@]23CC[C@]1(C)C3	69 µM
CCOC(=O)OC1C=COC=C2C[C@@]34SS[C@]5(CC6=COC=CC(OC(=O)OCC)C6N5C3=O)C(=O)N4C21	50 µg/mL
Cc1cccc(OCCNC(=O)c2ccc3ccccc3c2O)c1	73.1 µM
CC(=O)OC1C=COC=C2C[C@H]3C(=O)N4C5C(=COC=CC5OC(C)=O)C[C@H]4C(=O)N3C21	80 µg/mL
CCCCC[C@H](O)/C=C/C1[C@H](O)CC(=O)[C@@H]1CCCCCCC(=O)O	1.5 µg/mL
Cc1cccc(OCCNC(=O)c2ccccc2O)c1	59.3 µM
Cc1ccc(C)c(CN2CCN(c3nc(C(=O)O)cs3)CC2)c1	≥25 µg/mL
Cc1cccc(SCCNC(=O)c2ccccc2Cl)c1	60.8 µM
N[C@@H](COP(=O)(O)OC[C@H](O)CO)C(=O)O	>200 µg/mL
Cc1cccc(OCCNC(=O)c2ccc(N)cc2Cl)c1	>164 µM
CC(=O)OC1C=COC=C2C[C@@]3(O)C(=O)N4C5C(=COC=CC5OC(C)=O)C[C@@]4(S)C(=O)N3C21	164 µg/mL
C[C@@]12CC[C@]3(C1)C(C[C@@H](O)[C@H]1[C@](C)(C(=O)O)CCC[C@@]13C)C[C@H]2O	>898 µM
COc1ccc2cc3[n+](cc2c1OC)CCc1cc2c(cc1-3)OCO2	<10 µg/mL
O=C(NCCOc1ccc2c(c1)CCCC2)c1ccccc1Cl	60.1 µM
CO[C@H]1[C@@H](O)[C@H](N)[C@@H](O[C@H]2O[C@H](C(C)N)CC[C@H]2N)[C@H](O)[C@@H]1N(C)C(=O)CN	>200 µg/mL
C#C[C@]1(CO)O[C@@H](n2cc(C)c(=O)[nH]c2=O)C[C@@H]1O	>200 µM
COc1ccc(C(=O)NCCOc2cccc(C)c2)c(Cl)c1	>156.5 µM
C[C@]1(CO)O[C@@H](n2ccc(N)nc2=O)C[C@@H]1O	>200 µM
O=C(O)C1CSCN1	200 µg/mL
CCOC(=O)C(CCSC[C@H]1O[C@@H](n2ccc3c(N)ncnc32)[C@H](O)[C@@H]1O)NC(C)=O	>200 µg/mL
Cc1cccc(OC2CCCN(C(=O)c3ccccc3Cl)C2)c1	113.7 µM
O=C1N2C3C(=COC=CC3O)CC23SSC12CC1=COC=CC(O)C1N2C3=O	0.9 µg/mL
O=c1[nH]cnc2c1ncn2[C@H]1CC[C@@H](CO)O1	>100 µM
CCC(N)C(O)C(O)C(C)C(=O)NC(CC(C)C)C1Cc2cccc(O)c2C(=O)O1	2 µg/mL
OC[C@H]1O[C@@H](n2cnc3cc(Cl)c(Cl)cc32)[C@@H](O)[C@@H]1O	≥400 µg/mL
CC(C)OC(=O)C(CCSC[C@H]1O[C@@H](n2ccc3c(N)ncnc32)[C@H](O)[C@@H]1O)NC(=O)C(F)(F)F	200 µg/mL

Repeating the final 5 entries:

smiles,value
O=C1N2C3C(=COC=CC3O)CC23SSC12CC1=COC=CC(O)C1N2C3=O,0.9 µg/mL
O=c1[nH]cnc2c1ncn2[C@H]1CC[C@@H](CO)O1,>100 µM
CCC(N)C(O)C(O)C(C)C(=O)NC(CC(C)C)C1Cc2cccc(O)c2C(=O)O1,2 µg/mL
OC[C@H]1O[C@@H](n2cnc3cc(Cl)c(Cl)cc32)[C@@H](O)[C@@H]1O,≥400 µg/mL
CC(C)OC(=O)C(CCSC[C@H]1O[C@@H](n2ccc3c(N)ncnc32)[C@H](O)[C@@H]1O)NC(=O)C(F)(F)F,200 µg/mL